Anti-infective test results gathered from many reports (values: NIAID ChemDB through PubChem).

Common to all: growth or infection tests; organism: Mycobacterium tuberculosis

An empty or dashed field is not shown. Inhibition is in % at the dose shown (toxicity tests: loss of growth or viability). Lines come from different laboratories, so protocols vary. MIC bound comes from a single tested concentration.

compound	dose	cells	method	read-out	strain	value
C[N+](C)(C)CC(=O)N/N=C/c1ccncc1.[Cl-]	12.5 µg/mL	-	BACTEC	inhibition	H37Rv	-12%
CN[C@@H]1[C@H](O[C@H]2[C@H](O[C@H]3[C@H](O)[C@@H](O)[C@H](N=C(N)N)[C@@H](O)[C@@H]3N=C(N)N)O[C@@H](C)[C@]2(O)C=O)O[C@@H](CO)[C@H](O)[C@H]1O	-	-	-	MIC	H37Rv	0.37 µg/mL
Nc1nc(Sc2ccc([N+](=O)[O-])c3nonc23)c2[nH]cnc2n1	6.25 µg/mL	-	resazurin	inhibition	H37Rv	11%
C[C@H]1CC[C@H]2Oc3cccc(O)c3C(=O)[C@@H]12	-	-	resazurin	MIC	H37Rv	3.5 µM
C=CCOc1cc(OCC=C)c2c(CCC)cc(=O)oc2c1C(=O)CC	-	-	-	MIC	H37Ra	>128 µg/mL
O=C1NN=C(c2ccc(Cl)cc2)C/C1=C/c1ccc(O)cc1	-	-	resazurin	MIC	H37Rv	12.5 µg/mL
CC1=C(C(=O)Nc2ccccc2Cl)C(c2ccc(Cl)cc2Cl)C(C(=O)Nc2ccccc2Cl)=C(C)N1	-	-	-	MIC	H37Rv	>12.5 µg/mL
CC1(C)O[C@H]2[C@@H]([C@H]3Cn4cc([N+](=O)[O-])nc4O3)OC[C@H]2O1	-	-	-	MIC	H37Rv	6.25 µg/mL
COc1ccc(S(=O)(=O)NC(=S)S)cc1	-	-	-	MIC	PZA-R	>12.8 µg/mL
CO[C@H]1/C=C/O[C@@]2(C)Oc3c(C)c(O)c4c(O)c(c5c(c4c3C2=O)Nc2c(O)cc(N3CCN(CC=C(C)C)CC3)cc2O5)NC(=O)/C(C)=C\C=C\[C@H](C)[C@H](O)[C@@H](C)[C@@H](O)[C@@H](C)[C@H](OC(C)=O)[C@@H]1C	-	-	-	MIC	H37Rv	0.035 µg/mL
COc1ccc(CSc2nc3ccccc3[nH]2)cc1	-	-	-	MIC	My 331/88	>215 µM
Cc1ccc(NC2=CC(=O)C(=O)c3ccccc32)cc1	-	-	resazurin	MIC	H37Rv	0.2 µg/mL
C=C(CO)[C@@H]1CC[C@@]2(C)[C@H](O)CC=C(C)[C@@H]2[C@H]1O	-	-	-	MIC	-	>128 µg/mL
CC(C)(C)c1cnc(C(=O)/C=C/c2ccccc2F)cn1	-	-	absorbance	MIC	H37Rv	6.25 µg/mL
COc1cccc2c1C(=O)c1c(O)c3c(c(O)c1C2=O)C[C@@](O)(C(=O)CSc1ccccn1)C[C@@H]3OC1CC(N)C(O)C(C)O1.Cl	12.5 µg/mL	-	BACTEC	inhibition	H37Rv	-4%
C=C1C(=O)O[C@@H]2[C@H]3C(C)=CC[C@@H](O)[C@]3(C)CC[C@@H]12	-	-	-	MIC	-	64 µg/mL
CC[C@H]1OC(=O)[C@H](C)[C@@H](O[C@H]2C[C@@](C)(OC)[C@@H](O)[C@H](C)O2)[C@H](C)[C@@H](O[C@@H]2O[C@H](C)C[C@H](N(C)C)[C@H]2O)[C@](C)(OC)C[C@@H](C)C(=O)[C@H](C)[C@@H](O)[C@]1(C)O	-	-	-	MBC	Kurono	>128 µg/mL
CCCCCCCCCCSc1nc(N)nc2c1ncn2CC(=O)N[C@@H](CO)C(=O)OCC	6.25 µg/mL	-	BACTEC	inhibition	H37Rv	0%
O=C(NNC(=S)Nc1ccc(S(=O)(=O)N2CCCCC2)cc1)c1ccncc1	-	VERO	-	MIC	H37Rv	0.78 µg/mL
C/C1=C\[C@H]2OC(=O)[C@@H](C)[C@@H]2CCC2(C)O[C@@H]2CC1	-	-	-	MIC	-	128 µg/mL
CO[C@H]1[C@@H](O)[C@H](n2ccc(=O)[nH]c2=O)O[C@@H]1[C@@H](O[C@H]1OC(C(=O)N[C@H]2CCC[C@@H](C)NC2=O)=C[C@H](O)[C@@H]1O)C(N)=O	-	-	-	MIC	KATO	8 µg/mL
CC(C)(C)c1cnc(C(=O)/C=C/c2ccccc2Br)cn1	-	-	absorbance	MIC	H37Rv	6.25 µg/mL
CCCCCCCCCCOc1nc(N)nc2c1ncn2CC(=O)N[C@@H](Cc1ccccc1)C(=O)OC	6.25 µg/mL	-	BACTEC	inhibition	H37Rv	0%
CCCCc1cnc(C(=O)/C=C/c2ccccc2Br)cn1	-	-	absorbance	MIC	H37Rv	25 µg/mL
CO[C@H]1C([C@H](O)Cn2cnc([N+](=O)[O-])c2)O[C@@H]2OC(C)(C)O[C@@H]21	-	-	-	MIC	H37Rv	25 µg/mL
CC(C)(C)c1cnc(C(=O)/C=C/c2ccc(Br)cc2)cn1	-	-	absorbance	MIC	H37Rv	>50 µg/mL
C[C@@H]1CCC2C(C)(C)CCC[C@]2(C)[C@@]1(O)CCC1=CC(=O)OC1	-	-	BACTEC	MIC	H37Rv	100 µg/mL
Cc1ccc(NC(=S)C(=S)Nc2ccc(C)cc2)cc1	-	-	-	MIC	-	15 µM
CC1(C)O[C@H]2[C@@H]([C@@H](O)Cn3ccnc3[N+](=O)[O-])OC[C@H]2O1	-	-	-	MIC	H37Rv	6.25 µg/mL
C=C(C)COc1cc2c(c3oc(=O)cc(CCC)c13)C(O)[C@H](C)[C@@H](C)O2	-	-	-	MIC	H37Ra	>128 µg/mL
C=C1CC[C@@H](O)[C@]2(C)CC[C@@H]3[C@H](OC(=O)[C@H]3C)[C@@H]12	-	-	-	MIC	-	>128 µg/mL
COc1cccc2c1C(=O)c1c(O)c3c(c(O)c1C2=O)C[C@@](O)(/C(C)=N/NC(N)=O)CC3OC1CC(N)C(O)C(C)O1.Cl	-	-	BACTEC	MIC bound	H37Rv	≤12.5 µg/mL
CC(C)Cc1cnc(C(=O)/C=C/c2ccccc2Br)cn1	-	-	absorbance	MIC	H37Rv	>100 µg/mL
Clc1nc(OCC2CCCCC2)c2[nH]cnc2n1	6.25 µg/mL	-	BACTEC	inhibition	H37Rv	0%
FC(F)(F)c1cc(CSc2nc3ccccc3[nH]2)cc(C(F)(F)F)c1	-	-	-	MIC	My 331/88	>62 µM
C=CCN1CCN(c2cc(O)c3c(c2)Oc2c4c(O)c5c(O)c(C)c6c(c5c2N3)C(=O)[C@@](C)(O/C=C/[C@H](OC)[C@@H](C)[C@@H](OC(C)=O)[C@H](C)[C@H](O)[C@H](C)[C@@H](O)[C@@H](C)/C=C/C=C(/C)C(=O)N4)O6)CC1	-	-	-	MIC	H37Rv	0.035 µg/mL
CC1=C(C(=O)Nc2cccc(C)c2)C(c2cccc([N+](=O)[O-])c2)C(C(=O)Nc2cccc(C)c2)=C(C)N1	-	-	-	MIC	H37Rv	>6.25 µg/mL
O=c1c(Cl)cc2nc3ccccc3sc-2c1Cl	12.5 µg/mL	-	BACTEC	inhibition	H37Rv	81%
COC(=O)C1=C(C)N(c2ccccc2)C(C)=C(C(=O)OC)C1c1ccc(Cl)cc1	-	-	-	MIC	H37Rv	>6.25 µg/mL
COc1cc2c(cc1OC)[C@@H](Cc1ccc(Oc3cc(C[C@@H]4c5cc(OC)c(OC)cc5CCN4C)ccc3O)cc1)N(C)CC2	-	-	BACTEC	MIC	H37Rv	≥128 µg/mL
c1ccc(CCSc2nc3ccccc3[nH]2)cc1	-	-	-	MIC	My 331/88	>62 µM
CC1(C)O[C@H]2[C@@H]([C@H]3Cn4cc([N+](=O)[O-])nc4S3)OC[C@H]2O1	-	-	-	MIC	H37Rv	25 µg/mL
C=C1CC[C@@H](O)[C@]2(C)CC[C@@H](C(C)CO)[C@H](O)[C@@H]12	-	-	-	MIC	-	>128 µg/mL
COC(=O)C1=C/N(C2CCCCC2)C(=O)c2ccccc2/C(c2ccccc2)=C\1C(=O)OC	-	-	BACTEC	MIC	H37Rv	≥12.5 µg/mL
CCCc1cc(=O)oc2c(C(O)CC)c(OCC)c3c(c12)OC(C)(C)CC3	-	-	-	MIC	H37Ra	>128 µg/mL
Nc1c(-c2c(Cl)cccc2Cl)[n+]([O-])c2ccccc2[n+]1[O-]	-	-	-	MIC	EMB-R	3.1 µg/mL
CCCCCc1cnc(C(=O)/C=C/c2ccc(Br)cc2)cn1	-	-	absorbance	MIC	H37Rv	>50 µg/mL
CN1NC(=O)SC(=O)c2ccccc2C1=O	12.5 µg/mL	-	BACTEC	inhibition	H37Rv	12%
CCCCN1CCN(c2cc(O)c3c(c2)Oc2c4c(O)c5c(O)c(C)c6c(c5c2N3)C(=O)[C@@](C)(O/C=C/[C@H](OC)[C@@H](C)[C@@H](OC(C)=O)[C@H](C)[C@H](O)[C@H](C)[C@@H](O)[C@@H](C)/C=C/C=C(/C)C(=O)N4)O6)CC1	-	-	-	MIC	H37Rv	0.035 µg/mL
CC1=CC[C@@H](O)[C@]2(C)CC[C@@H]3[C@H](OC(=O)[C@H]3C)[C@@H]12	-	-	-	MIC	-	>128 µg/mL
CC1=C(C(=O)Nc2ccc([N+](=O)[O-])cc2)C(c2c3ccccc3cc3ccccc23)C(C(=O)Nc2ccccc2F)=C(C)N1	-	-	-	MIC	H37Rv	>6.25 µg/mL
Cc1ccc(C2=NNC(=O)/C(=C\c3ccccc3)C2)cc1	-	-	resazurin	MIC	H37Rv	25 µg/mL
Cc1cc(C)n(P2(n3nc(C)cc3C)=NP(n3nc(C)cc3C)(n3nc(C)cc3C)=NP(n3nc(C)cc3C)(n3nc(C)cc3C)=N2)n1	-	-	BACTEC	MIC	H37Rv	64 µg/mL
CC1(C)O[C@H]2[C@@H]([C@@H]3Cn4cc([N+](=O)[O-])nc4O3)OC[C@H]2O1	-	-	-	MIC	H37Rv	12.5 µg/mL
COC(=O)C12C=CC(C(=O)OC)(CC1)n1c(=O)n(-c3ccccc3)c(=O)n12	6.25 µg/mL	-	resazurin	inhibition	H37Rv	18%
CO[C@H]1/C=C/O[C@@]2(C)Oc3c(C)c(O)c4c(O)c(c5c(c4c3C2=O)Nc2c(O)cc(N3CCN(CC(C)C)CC3)cc2O5)NC(=O)/C(C)=C\C=C\[C@H](C)[C@H](O)[C@@H](C)[C@@H](O)[C@@H](C)[C@H](OC(C)=O)[C@@H]1C	-	-	-	MIC	H37Rv	0.017 µg/mL
CC(C)c1cccc(C(C)C)c1N1C(=O)C(=O)C(c2nc3ccccc3s2)C(=O)C1=O	-	-	resazurin	MIC bound	H37Rv	>6.25 µg/mL
CCCCCCCCCCOc1nc(N)nc2c1ncn2CC(=O)N[C@@H](C)C(=O)OC	6.25 µg/mL	-	BACTEC	inhibition	H37Rv	0%
NC(=O)c1cnccn1	-	-	-	MIC	Isolate 11243 monodrug-resistant	>300 µg/mL
NC(=S)c1ccc(CSc2nc3ccccc3[nH]2)cc1	-	-	-	MIC	My 331/88	16 µM
CO[C@H]1/C=C/O[C@@]2(C)Oc3c(C)c(O)c4c(O)c(c5c(c4c3C2=O)Nc2c(O)cc(N3CCN(CCC(C)C)CC3)cc2O5)NC(=O)/C(C)=C\C=C\[C@H](C)[C@H](O)[C@@H](C)[C@@H](O)[C@@H](C)[C@H](OC(C)=O)[C@@H]1C	-	-	-	MIC	H37Rv	0.07 µg/mL
OCCNc1nc2ccccc2c2ccccc12	-	-	BACTEC	MIC bound	H37Rv	>12.5 µg/mL
CCCc1cc(=O)oc2c3c(cc(OC)c12)O[C@H](C)[C@H](C)C3O	-	-	-	MIC	H37Ra	>128 µg/mL
COc1cccc(CSc2nc3ccccc3[nH]2)c1	-	-	-	MIC	My 331/88	125 µM
O=C1CSC2=NCC3(NN12)c1ccccc1-c1ccccc13	12.5 µg/mL	-	BACTEC	inhibition	H37Rv	57%
COc1cc(/C=C2/CC(c3ccc(C)cc3)=NNC2=O)ccc1O	-	-	resazurin	MIC	H37Rv	12.5 µg/mL
Cc1ccc(Oc2nc(Cl)nc3nc[nH]c23)cc1	6.25 µg/mL	-	BACTEC	inhibition	H37Rv	0%
C=C1C(=O)O[C@@H]2C[C@@]3(C)C=CC(=O)C(=C)[C@@H]3C[C@H]12	-	-	-	MIC	KM-R	12.5 µg/mL
CC(C)(C)c1cnc(C(=O)/C=C/c2ccc(Cl)cc2)cn1	-	-	absorbance	MIC	H37Rv	>50 µg/mL
Cc1cc2nc3c(=O)[nH]c(=O)nc-3n(C/C=N/NC(N)=S)c2cc1C	12.5 µg/mL	-	BACTEC	inhibition	H37Rv	-4%
C=C1C(=O)O[C@@H]2/C=C(\C)CC[C@H]3OC3(C)CC[C@@H]12	-	-	-	MIC	-	64 µg/mL
C[C@@]12C[C@@]3(O)O[C@@H](O1)[C@]1(COC(=O)c4ccccc4)[C@H]3C[C@@]12O[C@@H]1O[C@H](CO)[C@@H](O)[C@H](O)[C@H]1O	-	-	BACTEC	MIC	H37Rv	≥12.5 µg/mL
CC1(C)O[C@H]2[C@@H]([C@@H]3Cn4cc([N+](=O)[O-])nc4S3)OC[C@H]2O1	-	-	-	MIC	H37Rv	25 µg/mL
C=C1C(=O)O[C@H]2[C@H]1CCC1(C)O[C@@H]1CC[C@@]1(C)O[C@@H]21	-	-	-	MIC	-	128 µg/mL

Repeating the final 9 entries:

compound,dose,cells,method,read-out,strain,value
COc1cc(/C=C2/CC(c3ccc(C)cc3)=NNC2=O)ccc1O,-,-,resazurin,MIC,H37Rv,12.5 µg/mL
Cc1ccc(Oc2nc(Cl)nc3nc[nH]c23)cc1,6.25 µg/mL,-,BACTEC,inhibition,H37Rv,0%
C=C1C(=O)O[C@@H]2C[C@@]3(C)C=CC(=O)C(=C)[C@@H]3C[C@H]12,-,-,-,MIC,KM-R,12.5 µg/mL
CC(C)(C)c1cnc(C(=O)/C=C/c2ccc(Cl)cc2)cn1,-,-,absorbance,MIC,H37Rv,>50 µg/mL
Cc1cc2nc3c(=O)[nH]c(=O)nc-3n(C/C=N/NC(N)=S)c2cc1C,12.5 µg/mL,-,BACTEC,inhibition,H37Rv,-4%
C=C1C(=O)O[C@@H]2/C=C(\C)CC[C@H]3OC3(C)CC[C@@H]12,-,-,-,MIC,-,64 µg/mL
C[C@@]12C[C@@]3(O)O[C@@H](O1)[C@]1(COC(=O)c4ccccc4)[C@H]3C[C@@]12O[C@@H]1O[C@H](CO)[C@@H](O)[C@H](O)[C@H]1O,-,-,BACTEC,MIC,H37Rv,≥12.5 µg/mL
CC1(C)O[C@H]2[C@@H]([C@@H]3Cn4cc([N+](=O)[O-])nc4S3)OC[C@H]2O1,-,-,-,MIC,H37Rv,25 µg/mL
C=C1C(=O)O[C@H]2[C@H]1CCC1(C)O[C@@H]1CC[C@@]1(C)O[C@@H]21,-,-,-,MIC,-,128 µg/mL